Protein sequences can lack the tags named with them.
How the values were obtained:
[1] = target: T1, His6-MgrA (Staphylococcus aureus NCTC8325) (UniProt Q2G0B1); test: EMSA; details: 10 fmol probe; EMSA: 50 mM Tris-HCl pH 8.0, 200 mM NaCl, 25°C, 1 h; recombinant protein; residues 1-147; protein details: His6 (pET28a(+), NdeI/XhoI); label: 5'-biotin (reverse primer); probe letters rebuilt from the primers and the genome
T1 sequence (looked up): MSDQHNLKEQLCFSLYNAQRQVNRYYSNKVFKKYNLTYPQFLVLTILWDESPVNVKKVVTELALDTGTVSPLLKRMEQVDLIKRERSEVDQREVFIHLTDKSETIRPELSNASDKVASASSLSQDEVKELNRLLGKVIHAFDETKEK

[2] = target: T1, His6-MgrA (Staphylococcus aureus NCTC8325); test: competition with a labelled probe; details: 100-fold excess vs Ppsmα-biotin, competed; EMSA: 50 mM Tris-HCl pH 8.0, 200 mM NaCl, 25°C, 1 h; recombinant protein; residues 1-147; protein details: His6 (pET28a(+), NdeI/XhoI); probe letters rebuilt from the primers and the genome
[3] = target: T1, His6-MgrA (Staphylococcus aureus NCTC8325); test: DNase I footprinting; details: 2 and 4 μg MgrA/100 μl, 5 mM MgCl2, 1 mM CaCl2, -40 to -6 protected; DNase I footprinting: 20 mM Tris-HCl pH 8.0, 100 mM NaCl, 5 mM MgCl2, 1 mM CaCl2, 2 mM DTT, 25°C, 1 h (DNase I 1 min at 37°C); recombinant protein; residues 1-147; protein details: His6 (pET28a(+), NdeI/XhoI); label: 5'-6-FAM (forward primer); probe letters rebuilt from the primers and the genome

CCGGAATTCTCTGTTCAATTCATCTTCATAAATATGCTTTGCCTAGACGAGACCTAACGTGTTATTCGTTTTAAACTTATAACATAAAATATAATTAAATTTCTGCTTCATGTCAAATTCATGAGCTTAACCTCTATTAAACCAATGATTGTAAAGATTTTGTAAATGCACCTGTACAGTTAGGCAGTATTTCCCGTCCTTTTAAAATAAAAAATTCGCAGTTATGATCATAACAATTCAAGTTAGGAAAAAAATCAATTACGCACAAGATAACTATGTACAATGAAGTTAACTCATAAGCAAAGGAGGTAATCTTAATGGGTATCATCGCTGGCGGGGATCCGCG (double strand) [psmα promoter fragment (Ppsmα-biotin), 336 bp]
binding result [1]: binds

CCGGAATTCTCTGTTCAATTCATCTTCATAAATATGCTTTGCCTAGACGAGACCTAACGTGTTATTCGTTTTAAACTTATAACATAAAATATAATTAAATTTCTGCTTCATGTCAAATTCATGAGCTTAACCTCTATTAAACCAATGATTGTAAAGATTTTGTAAATGCACCTGTACAGTTAGGCAGTATTTCCCGTCCTTTTAAAATAAAAAATTCGCAGTTATGATCATAACAATTCAAGTTAGGAAAAAAATCAATTACGCACAAGATAACTATGTACAATGAAGTTAACTCATAAGCAAAGGAGGTAATCTTAATGGGTATCATCGCTGGCGGGGATCCGCG (double strand) [unlabeled psmα promoter fragment (Ppsmα), 336 bp]
binding result [2]: binds

TCTGTTCAATTCATCTTCATAAATATGCTTTGCCTAGACGAGACCTAACGTGTTATTCGTTTTAAACTTATAACATAAAATATAATTAAATTTCTGCTTCATGTCAAATTCATGAGCTTAACCTCTATTAAACCAATGATTGTAAAGATTTTGTAAATGCACCTGTACAGTTAGGCAGTATTTCCCGTCCTTTTAAAATAAAAAATTCGCAGTTATGATCATAACAATTCAAGTTAGGAAAAAAATCAATTACGCACAAGATAACTATGTACAATGAAGTTAACTCATAAGCAAAGGAGGTAATCTTAATGGGTATCATCGCTGGCGGGGATCCGCG (double strand) [psmα promoter fragment 6-FAM, 336 bp]
binding result [3]: binds
